Paper PMC12480751, “A quantitative high-throughput screening pipeline to identify small molecule inhibitors of Chikungunya nsP2 protease” (Scientific Reports, 2025)

Tests used:
nsP2 protease = nsP2 protease (Chikungunya virus, UniProt Q8JUX6); experiment: Cell-based nsP2 proteolytic assay, split Nluc reporter in HEK293 cells
CHIKV nsP2pro = CHIKV nsP2pro (Chikungunya virus, UniProt Q8JUX6); experiment: FRET-based nsP2pro proteolytic assay with peptide 2 (nsp3/4 site), 1,536-well qHTS; conditions: nsP2pro biochemical assay, 13 cell-active hits

Oc1ccc(CNc2ccccc2F)c2cccnc12
Cell-based % Efficacy (nsP2 protease; increase of Nluc reporter signal): 181.6%
AC50 (nsP2 protease; read-out: Cell-based AC50, increase of Nluc reporter signal): 900 nM
Enzymatic % Efficacy (CHIKV nsP2pro): -118.4%
IC50 (CHIKV nsP2pro; read-out: Enzymatic IC50): 1900 nM
